Reference: PMC12519464, “Dual-Site Inhibition of SARS-CoV‑2 RNA-Dependent RNA Polymerase by Small Molecules Able to Block Viral Replication Identified through a Computer-Aided Drug Discovery Approach” (ACS Infectious Diseases, 2025)

Molecular target: SARS-CoV-2 nsp12/7/8 (RTC) complex (Severe acute respiratory syndrome coronavirus 2, UniProt P0DTD1)
Type: biochemical
Conditions: read-out: IC50: compound concentration required to inhibit by 50% the SARS-CoV-2 RTC enzymatic activity

Substance	IC50
(2S,4aS,6aR,6aS,6bR,8aR,10S,12aS,14bR)-10-hydroxy-2,4a,6a,6b,9,9,12a,14b-octamethyl-N-(4-methylphenyl)-13-oxo-1,3,4,5,6,6a,7,8,8a,10,11,12-dodecahydropicene-2-carboxamide	> 100 µM
Bromocryptine [reference compound]	> 100 µM
Echinocystic acid	88.5 ± 16.2 µM
